In this experiment the test system is rice seedling emergence. Briefly: rice seed treatment. It counts as in vivo. As to conditions: difference highest to lowest percent change.

For the molecule `O=C1[C@H]2CC=CC[C@H]2C(=O)N1SC(Cl)(Cl)C(Cl)Cl` (relative stereo), the “Performance Consistency” value worked out at 47.8.
